Tested on: Botrytis cinerea
Assay: Control of Botrytis cinerea on detached horsebean leaves

CSc1nn(SC(Cl)(Cl)C(Cl)Cl)c(=O)n1-c1ccccc1
controlling Botrytis cinerea fungus on detached horsebean leaves: effective

Reference: US4098896A, “1-Halohydrocarbylthio-3-hydrocarbylthio-4-substituted-1,2,4-delta^2 -triazolidin-5-ones” (dated 1978)
